Compound potency records, mixed from different reports. Data source: NIAID ChemDB in PubChem.

Shared fields: growth or infection tests

Inhibition is in % at the dose shown (toxicity tests: loss of growth or viability).

structure | setting | strain or isolate | method | read-out | dose | organism | result
CCCCCCCCCCCCO/N=C1\[C@H](C)CC(C)(O)[C@H](O[C@@H]2O[C@H](C)C[C@H](N(C)C)[C@H]2O)[C@@H](C)[C@H](OC2C[C@@](C)(OC)[C@@H](O)[C@H](C)O2)[C@@H](C)C(=O)O[C@H](CC)[C@@](C)(O)[C@H](O)[C@H]1C |  | 20092 (clarithromycin-resistant) |  | MIC |  | Mycobacterium avium complex | 25 µg/mL
FC(F)(F)Oc1ccc(Nc2ncnc3ccccc23)cc1 |  |  | luminescence | MIC50 |  | Mycobacterium bovis BCG | >50 µM
CCCCCCCCCCN(CCCCCCCCCC)C(=O)NC(CCC(=O)O)(CCC(=O)O)CCC(=O)O |  | ATCC 927 |  | MIC |  | Mycobacterium marinum | 71 µg/mL
CC[C@H]1OC(=O)[C@H](C)[C@@H](OC2C[C@@](C)(OC)[C@@H](O)[C@H](C)O2)[C@H](C)[C@@H](O[C@@H]2O[C@H](C)C[C@H](N(C)C)[C@H]2O)C(C)(O)C[C@@H](C)/C(=N\OCCOc2ccccc2)[C@H](C)[C@@H](O)[C@]1(C)O |  | 20039 (clarithromycin-susceptible) |  | MIC |  | Mycobacterium avium complex | 1.56 µg/mL
CCCCCCCCCCCCCCCCCCNC(=O)NC(CCC(=O)O)(CCC(=O)O)CCC(=O)O |  | ATCC 927 |  | MIC |  | Mycobacterium marinum | 23 µg/mL
CCCCNNC(=O)O[C@H]1[C@H](O[C@@H]2[C@@H](C)[C@H](O[C@H]3C[C@@](C)(OC)[C@@H](OC(C)=O)[C@H](C)O3)[C@@H](C)C(=O)O[C@H](CC)[C@@](C)(O)[C@H](O)[C@@H](C)/C(=N/OCCCC3CCCCC3)[C@H](C)CC2(C)O)O[C@H](C)C[C@@H]1N(C)C |  | 20039 (clarithromycin-susceptible) |  | MIC |  | Mycobacterium avium complex | 0.78 µg/mL
FC(F)(F)c1ccc(Oc2ccc(Nc3ncnc4cc(Cl)ccc34)cc2)cc1 |  |  | luminescence | MIC50 |  | Mycobacterium bovis BCG | >20 µM
NNC(=O)c1ccncc1 |  | N-265 (HIV-) |  | MIC |  | Mycobacterium avium complex | 1 µg/mL
Fc1ccc2c(Nc3ccc(N4CCCN(c5ccc(C(F)(F)F)cc5)CC4)cc3)ncnc2c1 |  |  | luminescence | MIC50 |  | Mycobacterium bovis BCG | >20 µM
CO[C@H]1/C=C/O[C@@]2(C)Oc3c(C)c(O)c4c(O)c(c5c(c4c3C2=O)NC2(CCN(CC(C)C)CC2)N=5)=NC(=O)/C(C)=C\C=C\[C@H](C)[C@H](O)[C@@H](C)[C@@H](O)[C@@H](C)[C@H](OC(C)=O)[C@@H]1C |  | 92 |  | MIC |  | Mycobacterium avium intracellulare | 0.125 µg/mL
COc1ccc2oc(=S)n(-c3ccc(Cl)cc3)c(=S)c2c1 | 21 d | My 235/80 |  | MIC |  | Mycobacterium kansasii | 32 µM
CCc1nc2cc(C)c(F)cn2c1C(=O)NCc1ccc(N2CCN(c3ccc(OC(F)(F)F)cc3)[C@@H](C)C2)c(F)c1 |  |  | fluorescence | inhibition | 0.068 µM | Mycobacterium avium | 85%
Fc1ccc2c(NCCc3ccc(OC(F)(F)F)cc3)ncnc2c1 |  |  | luminescence | MIC50 |  | Mycobacterium bovis BCG | >20 µM
CN[C@@H]1[C@H](O[C@H]2[C@H](O[C@H]3[C@H](O)[C@@H](O)[C@H](N=C(N)N)[C@@H](O)[C@@H]3N=C(N)N)O[C@@H](C)[C@]2(O)C=O)O[C@@H](CO)[C@H](O)[C@H]1O |  | N-962 (HIV+) |  | MIC |  | Mycobacterium avium complex | 4 µg/mL
Cc1ccn2nc(C)c(C(=O)NCc3ccc(N4CCN(c5ccc(OC(F)(F)F)cc5)[C@@H](C)C4)c(F)c3)c2c1.Cl |  |  | fluorescence | inhibition | 0.025 µM | Mycobacterium avium | 85%
CCCCCCCCCCCCCCCCCCC(=O)NC(C)(CCC(=O)O)CCC(=O)O |  | AAy-P-1 |  | MIC |  | Mycobacterium abscessus | 4.5 µg/mL
Clc1ccc2c(c1)CCC(Nc1ncnc3ccccc13)C2 |  |  | luminescence | MIC50 |  | Mycobacterium bovis BCG | >50 µM
CCc1nc2cc(F)ccn2c1C(=O)NCc1ccc(N2CCN(c3ccc(OC(F)(F)F)cc3)[C@@H](C)C2)c(Cl)c1.Cl |  |  | fluorescence | inhibition | 0.002 µM | Mycobacterium avium | 85%
Fc1ccc2oc(=S)n(-c3ccccc3)c(=S)c2c1 | 21 d | 6509/96 |  | MIC |  | Mycobacterium kansasii | 2 µM
Cc1ccn2c(C(=O)NCc3ccc(N4CCN(c5ccc(OC(F)(F)F)cc5)[C@H](C)C4)c(F)c3)c(C)nc2c1 |  |  | fluorescence | inhibition | 0.07 µM | Mycobacterium avium | 85%
CO[C@@]1(NC(=O)C2SC(=C(C(N)=O)C(=O)[O-])S2)C(=O)N2C(C(=O)[O-])=C(CSc3nnnn3C)CS[C@@H]21 |  | 1059 |  | MIC |  | Mycobacterium fortuitum | 100 µg/mL
FC(F)(F)c1ccc(N2CCN(c3ccc(Nc4ncnc5ccccc45)cc3)CC2)nc1 |  |  | luminescence | MIC50 |  | Mycobacterium bovis BCG | >20 µM
CCc1nc2ccc(Cl)cn2c1C(=O)NCc1ccc(C2CCN(c3ccc(OCC4CC4)cc3)CC2)c(F)c1.Cl |  |  | fluorescence | inhibition | 0.016 µM | Mycobacterium avium | 85%
FC(F)(F)Oc1ccc(CCNc2ncnc3cc(Br)ccc23)cc1 |  |  | luminescence | MIC50 |  | Mycobacterium bovis BCG | >20 µM
CC[C@H]1OC(=O)[C@H](C)[C@@H](OC2C[C@@](C)(OC)[C@@H](O)[C@H](C)O2)[C@H](C)[C@@H](O[C@@H]2O[C@H](C)C[C@H](N(C)C)[C@H]2O)C(C)(O)C[C@@H](C)/C(=N\OCCCCc2ccccc2)[C@H](C)[C@@H](O)[C@]1(C)O |  | 20092 (clarithromycin-resistant) |  | MIC |  | Mycobacterium avium complex | 6.25 µg/mL
CO[C@H]1/C=C/O[C@@]2(C)Oc3c(C)c(O)c4c(O)c(c5c(c4c3C2=O)NC2(CCN(CC(C)C)CC2)N=5)=NC(=O)/C(C)=C\C=C\[C@H](C)[C@H](O)[C@@H](C)[C@@H](O)[C@@H](C)[C@H](OC(C)=O)[C@@H]1C |  | N-314 (HIV-) |  | MIC |  | Mycobacterium avium complex | 1.6 µg/mL
FC(F)(F)Oc1ccc(CNc2ncnc3ccsc23)cc1 |  |  | luminescence | MIC50 |  | Mycobacterium bovis BCG | >50 µM
CCc1nc2ccc(Cl)cn2c1C(=O)NCc1ccc(N(C)C)cc1 |  |  | fluorescence | MIC50 |  | Mycobacterium ulcerans | 0.001–0.01 µg/mL
CCCCCCCCO/N=C1\[C@H](C)CC(C)(O)[C@H](O[C@@H]2O[C@H](C)C[C@H](N(C)C)[C@H]2O)[C@@H](C)[C@H](O[C@H]2C[C@@](C)(OC)[C@@H](OC(C)=O)[C@H](C)O2)[C@@H](C)C(=O)O[C@H](CC)[C@@](C)(O)[C@H](O)[C@H]1C |  | 20096 (clarithromycin-resistant) |  | MIC |  | Mycobacterium avium complex | 1.56 µg/mL
Cc1nc2cc(C(F)(F)F)ccn2c1C(=O)NCc1ccc(C2CCN(c3ccc(OC(F)(F)F)cc3)CC2)c(F)c1 |  |  | fluorescence | inhibition | 0.76 µM | Mycobacterium avium | 85%
CC(C)=CCC/C(C)=C/CNc1ncnc2ccoc12 |  |  | luminescence | MIC50 |  | Mycobacterium bovis BCG | >20 µM
CO[C@H]1/C=C/O[C@@]2(C)Oc3c(C)c(O)c4c(=O)c(c5oc6cc(N7CCN(CC(C)C)CC7)cc(=O)c6nc5c4c3=C2O)NC(=O)/C(C)=C\C=C\[C@H](C)[C@H](O)[C@@H](C)[C@@H](O)[C@@H](C)[C@H](OC(C)=O)[C@@H]1C |  | N-251 (HIV-) |  | MIC |  | Mycobacterium avium complex | 0.0625 µg/mL
Cc1ccn2nc(C)c(C(=O)NCc3ccc(C4CCN(c5ccc(OC(F)(F)F)cc5)CC4)c(F)c3)c2c1.Cl |  |  | fluorescence | inhibition | 0.066 µM | Mycobacterium avium | 85%
CCc1nc2ccc(Cl)cn2c1C(=O)NCc1ccc(OC(F)(F)F)cc1 |  |  | fluorescence | MIC50 |  | Mycobacterium ulcerans | 0.01–0.1 µg/mL
CC1(C)N=C(N)N=C(N)N1OCCCOc1cc(Cl)c(Cl)cc1Cl |  | 101 |  | MIC |  | Mycobacterium avium complex | ≤0.5 µg/mL
CC[C@H]1OC(=O)[C@H](C)[C@@H](OC2C[C@@](C)(OC)[C@@H](OC(=O)CCCc3ccccc3)[C@H](C)O2)[C@H](C)[C@@H](O[C@@H]2O[C@H](C)C[C@H](N(C)C)[C@H]2O)C(C)(O)C[C@@H](C)/C(=N\OCCCOc2ccccc2)[C@H](C)[C@@H](O)[C@]1(C)O |  | 20096 (clarithromycin-resistant) |  | MIC |  | Mycobacterium avium complex | 3.13 µg/mL
CCCCCCCCCCCCCCCCCCCCCOC(=O)NC(CCC(=O)O)(CCC(=O)O)CCC(=O)O |  | AAy-P-1 |  | MIC |  | Mycobacterium abscessus | 4.5 µg/mL
CO[C@@]1(NC(=O)CCCC(N)C(=O)O)C(=O)N2C(C(=O)O)=C(COC(N)=O)CSC21 |  | 1047 |  | MIC |  | Mycobacterium fortuitum | >100 µg/mL
Cc1nc(Nc2ccc(Oc3ccc(C(F)(F)F)cc3)cc2)c2ccccc2n1 |  |  | luminescence | MIC50 |  | Mycobacterium bovis BCG | >20 µM
CO[C@@]1(NC(=O)Cc2cccs2)C(=O)N2C(C(=O)O)=C(COC(N)=O)CS[C@@H]21 |  | 1045 |  | MIC |  | Mycobacterium fortuitum | 50 µg/mL
O=c1oc2ccc(Br)cc2c(=S)n1-c1ccc(Cl)cc1 | 14 d | 6509/96 |  | MIC |  | Mycobacterium kansasii | 4 µM
Fc1ccc2c(Nc3ccc(N4CCC5(CC4)CCN(c4ccc(C(F)(F)F)cc4)CC5)cc3)ncnc2c1 |  |  | luminescence | MIC50 |  | Mycobacterium bovis BCG | >50 µM
COc1ccc2oc(=O)n(-c3ccc(Cl)c(Cl)c3)c(=S)c2c1 | 14 d | My 235/80 |  | MIC |  | Mycobacterium kansasii | 62.5 µM
CCCCCCCCC(CCCCCCCC)OC(=O)NC(CCC(=O)O)(CCC(=O)O)CCC(=O)O |  | AAy-P-1 |  | MIC |  | Mycobacterium abscessus | 216 µg/mL
Cc1ccc2nc(C)c(C(=O)NCc3ccc(N4CCOCC4)cc3)n2c1 |  |  | fluorescence | MIC50 |  | Mycobacterium ulcerans | 1–10 µg/mL
Fc1ccc2c(Nc3ccc(N4CCN(c5ccc(C(F)(F)F)cc5)CC4)cc3)ncnc2c1 |  |  | luminescence | MIC50 |  | Mycobacterium bovis BCG | >10 µM
CO[C@@]1(NC(=O)Cc2ccccc2)C(=O)N2C(C(=O)[O-])=C(CSc3nnc(C)s3)CSC21 |  | 1030-8 |  | MIC |  | Mycobacterium fortuitum | 100 µg/mL
Fc1cc(Nc2ncnc3ccccc23)ccc1N1CCOCC1 |  |  | luminescence | MIC50 |  | Mycobacterium bovis BCG | >50 µM
CC[C@H]1OC(=O)[C@H](C)[C@@H](O[C@H]2C[C@@](C)(OC)[C@@H](OC(C)=O)[C@H](C)O2)[C@H](C)[C@@H](O[C@@H]2O[C@H](C)C[C@H](N(C)C)[C@H]2O)C(C)(O)C[C@@H](C)/C(=N\OCCCC2CCCCC2)[C@H](C)[C@@H](O)[C@]1(C)O |  | 20092 (clarithromycin-resistant) |  | MIC |  | Mycobacterium avium complex | 3.13 µg/mL
Cc1nc2ccc(Cl)cn2c1C(=O)NCc1ccc(N2CCOCC2)cc1 |  |  | fluorescence | MIC50 |  | Mycobacterium ulcerans | 0.01–0.1 µg/mL
Fc1ccc2c(Nc3ccc(NCCN4CCOCC4)cc3)ncnc2c1 |  |  | luminescence | MIC50 |  | Mycobacterium bovis BCG | >10 µM
C[C@@H](O)[C@H]1C(=O)N2C(C(=O)O)=C(SCCN=CN)C[C@H]12 |  | 1261 |  | MIC |  | Mycobacterium fortuitum | 3.12 µg/mL
FC(F)(F)c1cccc(Oc2ccc(Nc3ncnc4ccccc34)cc2)c1 |  |  | luminescence | MIC50 |  | Mycobacterium bovis BCG | >20 µM
Cc1nc2ccc(Cl)cn2c1C(=O)NCc1ccc(C2CCN(c3ccc(OC(F)(F)F)cc3)CC2)c(F)c1 |  |  | fluorescence | inhibition | 0.0031 µM | Mycobacterium avium | 85%
CS(=O)(=O)c1ccc(Oc2ccc(Nc3ncnc4cc(F)ccc34)cc2)cc1 |  |  | luminescence | MIC50 |  | Mycobacterium bovis BCG | >50 µM
CCc1nc2cc(F)ccn2c1C(=O)NCc1ccc(N2CCN(c3ccc(OC(F)(F)F)cc3)[C@@H](C)C2)c(F)c1 |  |  | fluorescence | inhibition | 0.0013 µM | Mycobacterium avium | 85%
Cn1ccc2ncnc(Nc3ccc(Oc4ccc(C(F)(F)F)cc4)cc3)c21 |  |  | luminescence | MIC50 |  | Mycobacterium bovis BCG | 25.9 µM
CCCCCCCCN(CCCCCCCC)C(=O)NC(CCC(=O)O)(CCC(=O)O)CCC(=O)O |  | AAy-P-1 |  | MIC |  | Mycobacterium abscessus | 72 µg/mL
FC(F)(F)c1ccc(Oc2ccc(Nc3ncnc4ccccc34)cc2)cc1 |  |  | luminescence | MIC50 |  | Mycobacterium bovis BCG | >20 µM
COc1ccc2oc(=S)n(-c3ccc(Br)cc3)c(=S)c2c1 | 21 d | My 235/80 |  | MIC |  | Mycobacterium kansasii | 32 µM
CC(C)CCC[C@@H](C)[C@H]1CC[C@H]2[C@@H]3CC[C@H]4C[C@H](NC(=O)NC(CCC(=O)O)(CCC(=O)O)CCC(=O)O)CC[C@]4(C)[C@H]3CC[C@]12C |  | AAy-P-1 |  | MIC |  | Mycobacterium abscessus | 4.5 µg/mL
Cc1nc(Nc2ccccc2Oc2ccc(C(F)(F)F)cc2)c2ccc(F)cc2n1 |  |  | luminescence | MIC50 |  | Mycobacterium bovis BCG | >50 µM

a–b is a range or a potency band. Neighbouring rows are from separate reports. Blank or dashed fields: not listed here. MIC50, MIC90 and the like: level of inhibition, or share of isolates inhibited.